Legend:
M. avium 2285R = assay: Checkerboard antibacterial synergy testing of EBO pairwise combinations; type: cell-based; details: in combination with EBO, Middlebrook 7H9+5% OADC
Procedure: (§1) Frozen stocks of the drugs were prepared at 5 or 2 mg/ml and frozen in aliquots at −20° C. On the day of the experiment the stocks were thawed and diluted to the appropriate concentration. Middlebrook 7H9 broth and agar, CA-MH agar and Middlebrook OADC were all purchased from Becton-Dickinson and Company (Sparks, MD).
(§2) M. avium 2285R (Verma et al. Microbiol (2019) 10: 693) and M intracellulare DNA000111 were obtained from Diane Ordway (Colorado State University, Fort Collins, CO). M. chimaera 20-S-05 and the macrolide/bedaquiline-resistant M. intracellulare 20-S-13 isolate were obtained from Barbara Brown-Elliott (Mycobacteria/Nocardia Research Laboratory, University of Texas Health Science Center, Tyler Tx). The strains M abscessus ATCC 19977, M. avium ATCC 700898 and M. peregrinum ATCC 700686 were obtained from the American Type Culture Collection (ATCC, Manassas, VA). Stocks of isolates were prepared and frozen at −80° C. Fresh cultures of each isolate (1-2 weeks) were grown on either 7H10 agar plus 5% OADC or CAMH agar plus 5% OADC for use in each experiment.
(§3) The checkerboard methodology was used to test for synergy and antagonism using Middlebrook 7H9+5% OADC (Dubos et al. Am Rev Tuberc (1947) 56:334-45) as the microbiology growth media. The first antibiotic of the combination, EBO, was serially diluted along the x-axis, whereas the second antibiotic was diluted along the y-axis. Synergistic or antagonistic activity was determined using the sum of the fractional inhibitory concentration (ΣFIC) index. The FTC index is calculated as the sum of FTC A+FTC B, where FTC A is the MIC of drug A in the combination of drugs A and B divided by the MIC of drug A alone, plus the MIC of drug B in the combination of drugs A and B divided by the MIC of drug B alone. A combination of drugs is considered synergistic when the FIC is ≤0.5, additive when the FTC is >0.5 to 1, indifferent when the FIC is >1 to 2, and antagonistic when the FTC is >2 (EUCAST. Clin. Microbiol. Infect. (2000) 6: 503-508).

[1] = test system: M. intracellulare 20-S-13; assay: as above; type: cell-based; details: in combination with EBO, Middlebrook 7H9+5% OADC, M. intracellulare 20-S-13 (macrolide/bedaquiline-resistant)
Procedure: as §1, §2, §3

| Structure (SMILES) | Summary Activity of EBO Drug Combinations (ΣFIC index class) (M. avium 2285R) | Summary Activity of EBO Drug Combinations (ΣFIC index class) [1] |
| --- | --- | --- |
| CC[C@H]1OC(=O)[C@H](C)[C@@H](O[C@H]2C[C@@](C)(OC)[C@@H](O)[C@H](C)O2)[C@H](C)[C@@H](O[C@@H]2O[C@H](C)C[C@H](N(C)C)[C@H]2O)[C@](C)(OC)C[C@@H](C)C(=O)[C@H](C)[C@@H](O)[C@]1(C)O [CLR, Clarithromycin] | A (A = Additive) | – |
| NCC[C@H](O)C(=O)N[C@@H]1C[C@H](N)[C@@H](O[C@H]2O[C@H](CN)[C@@H](O)[C@H](O)[C@H]2O)[C@H](O)[C@H]1O[C@H]1O[C@H](CO)[C@@H](O)[C@H](N)[C@H]1O [AMK, Amikacin] | I (I = Indifferent) | I (I = Indifferent) |
